Results of unrelated studies side by side (data: NIAID ChemDB).

All rows: growth or infection tests; organism: HIV-1; read by: cytopathic effect / MTT; endpoint: EC50

ECn: concentration that inhibits the pathogen or its effect by n%.

{"smiles": "CSCSc1nc(Cc2c(F)cccc2F)c(C)c(=O)[nH]1", "strain": "IIIB", "cell line": "MT-4", "value": "0.1 µM"}
{"smiles": "O=C(O[C@@H]1O[C@@H]2COC(=O)c3cc(O)c(O)c(O)c3-c3c(cc(O)c(O)c3O)C(=O)O[C@H]2[C@@H]2OC(=O)c3cc(O)c(O)c(O)c3-c3c(cc(O)c(O)c3O)C(=O)O[C@@H]12)c1cc(O)c(O)c(O)c1", "strain": "IIIB", "cell line": "MT-4", "value": ">25 µg/mL"}
{"smiles": "Nc1cc2c(=O)c(C(=O)O)cn(N)c2cc1N1CCN(c2ccccn2)CC1", "strain": "IIIB", "cell line": "MT-4", "value": "2.23 µM"}
{"smiles": "O=C(c1cc2cc3c(cc2[nH]1)OCO3)N1CCN(C(=O)c2cc3cc4c(cc3[nH]2)OCO4)CC1", "cell line": "CEM", "value": ">200 µM"}
{"smiles": "FC(F)(F)c1cccc(-n2c(Cc3ccccn3)n[nH]c2=S)c1", "strain": "IIIB", "cell line": "MT-4", "value": ">100 µM"}
{"smiles": "CNc1cc2c(=O)c(C(=O)O)cn(C)c2cc1N1CCN(c2ccccn2)CC1", "strain": "IIIB", "cell line": "MT-4", "value": "5.33 µM"}
{"smiles": "CSCSc1nc(C(C)c2c(F)cccc2F)cc(=O)[nH]1", "strain": "IIIB", "cell line": "MT-4", "value": "0.1 µM"}
{"smiles": "CCCCCCCCCCCCOC(=O)c1cc(O)c(O)c(O)c1", "strain": "IIIB", "cell line": "MT-4", "value": ">3.1 µg/mL"}
{"smiles": "COc1c(Cl)cc(C(=CCN[C@@H]2CC[C@@]3(C)[C@@H](CC[C@@H]4[C@@H]3CC[C@]3(C)[C@@H]([C@H](C)CCCC(C)C)CC[C@@H]43)C2)c2cc(Cl)c(OC)c(C(=O)O)c2)cc1C(=O)O", "strain": "IIIB", "cell line": "MT-4", "value": ">87 µM"}
{"smiles": "Clc1cccc(Nc2nnc(Cc3ccccn3)s2)c1", "strain": "IIIB", "cell line": "MT-4", "value": ">100 µM"}
{"smiles": "O=CC(OC(=O)c1cc(O)c(O)c(O)c1Oc1cc2c(c(O)c1O)-c1c(cc(O)c(O)c1O)C(=O)OC1C(COC2=O)OC(OC(=O)c2cc(O)c(O)c(O)c2)C(OC(=O)c2cc(O)c(O)c(O)c2)C1OC(=O)c1cc(O)c(O)c(O)c1)C(OC(=O)c1cc(O)c(O)c(O)c1)C1OC(=O)c2cc(c(O)c(O)c2O)-c2c(cc(O)c(O)c2O)C(=O)OCC1O", "strain": "IIIB", "cell line": "MT-4", "value": ">50 µg/mL"}
{"smiles": "Cc1ccccc1S(=O)(=O)c1c(C(N)=O)[nH]c2ccc(Cl)cc12", "strain": "N119 nevirapine-resistant (RT Y181C)", "changes": "RT-Y181C", "cell line": "MT-4", "value": "0.16 µM"}
{"smiles": "Cc1cn([C@H]2C[C@H](N=[N+]=[N-])[C@@H](CO)S2)c(=O)[nH]c1=O", "strain": "IIIB", "cell line": "MT-4", "value": ">100 µM"}
{"smiles": "O=C1O[C@@H]2O[C@@H]3COC(=O)c4cc(O)c(O)c(O)c4-c4c(cc(O)c(O)c4O)C(=O)O[C@H]3[C@H](OC(=O)c3cc(O)c(O)c(O)c3)[C@H]2OC(=O)c2cc(O)c(O)c(O)c2Oc2cc(cc(O)c2O)C(=O)O[C@@H]2O[C@@H]3COC(=O)c4cc(O)c(O)c(O)c4-c4c(cc(O)c(O)c4O)C(=O)O[C@H]3[C@H](OC(=O)c3cc(O)c(O)c(O)c3)[C@H]2OC(=O)c2cc(O)c(O)c(O)c2Oc2c(O)cc1cc2O", "strain": "IIIB", "cell line": "MT-4", "value": ">50 µg/mL"}
{"smiles": "O=C(NCCCCNC(=O)c1cc2cc(O)c(O)cc2[nH]1)c1cc2cc(O)c(O)cc2[nH]1", "cell line": "CEM", "value": ">26 µM"}
{"smiles": "CC(C)CCC[C@@H](C)[C@H]1CC[C@H]2[C@@H]3CC[C@H]4C[C@@H](CCC=C(c5cc(Cl)c(O)c(C(=O)O)c5)c5cc(Cl)c(O)c(C(=O)O)c5)CC[C@]4(C)[C@H]3CC[C@]12C", "strain": "IIIB", "cell line": "MT-4", "value": "1.84 µM"}
{"smiles": "O=C(Cc1ccccn1)NNC(=S)Nc1cccc(Cl)c1", "strain": "IIIB", "cell line": "MT-4", "value": ">100 µM"}
{"smiles": "Nc1cc2c(=O)c(C(=O)O)cn(C3CC3)c2cc1N1CCN(c2ccc3ccccc3n2)CC1", "strain": "IIIB", "cell line": "MT-4", "value": ">0.2 µM"}
{"smiles": "O=C(OC[C@H]1O[C@@H](OC(=O)c2cc(O)c(O)c(O)c2)[C@H](OC(=O)c2cc(O)c(O)c(O)c2Oc2cc3c(c(O)c2O)-c2c(cc(O)c(O)c2O)C(=O)O[C@H]2[C@H](OC(=O)c4cc(O)c(O)c(O)c4)[C@@H](OC(=O)c4cc(O)c(O)c(O)c4)[C@H](OC(=O)c4cc(O)c(O)c(O)c4)O[C@@H]2COC3=O)[C@@H](OC(=O)c2cc(O)c(O)c(O)c2)[C@@H]1O)c1cc(O)c(O)c(O)c1", "strain": "IIIB", "cell line": "MT-4", "value": ">100 µg/mL"}
{"smiles": "Cc1cccc(S(=O)(=O)c2c(C(N)=O)[nH]c3ccc(Cl)cc23)c1", "strain": "Efavirenz-resistant (RT K103R V179D P225H)", "changes": "RT-K103R V179D P225H", "cell line": "C8166", "value": "<0.26 µM"}
{"smiles": "O=C(Cc1ccccn1)NNC(=S)Nc1ccc(F)c(Cl)c1", "strain": "IIIB", "cell line": "MT-4", "value": ">100 µM"}
{"smiles": "CC(C)CCC[C@@H](C)[C@H]1CC[C@H]2[C@@H]3CC[C@H]4C[C@@H](NC(=O)CC=C(c5cc(Cl)c(O)c(C(=O)O)c5)c5cc(Cl)c(O)c(C(=O)O)c5)CC[C@]4(C)[C@H]3CC[C@]12C", "strain": "IIIB", "cell line": "MT-4", "value": "35.8 µM"}
{"smiles": "Cc1ccc(S(=O)(=O)c2c(C(N)=O)[nH]c3ccc(Cl)cc23)c(C)c1", "strain": "Efavirenz-resistant (RT K103R V179D P225H)", "changes": "RT-K103R V179D P225H", "cell line": "C8166", "value": "<5.3 µM"}
{"smiles": "Cc1cn([C@H]2C[C@H](O)[C@@H](CO)S2)c(=O)[nH]c1=O", "strain": "IIIB", "cell line": "MT-4", "value": ">1 µM"}
{"smiles": "Cc1cn(CCCCO[C@H]2C=C[C@@H](CO)O2)c(=O)[nH]c1=O", "strain": "IIIB", "cell line": "MT-4", "value": ">33 µg/mL"}
{"smiles": "C#C[C@@]1(CO)C=C[C@H](n2cc(C)c(=O)[nH]c2=O)O1", "strain": "IIIB", "cell line": "MT-2", "value": "0.16 µM"}
{"smiles": "O=c1[nH]c(=O)n([C@@H]2C[C@H](O)[C@@H](CO)S2)cc1/C=C/Br", "strain": "IIIB", "cell line": "MT-4", "value": ">500 µM"}
{"smiles": "O=C(NCCCN1CCN(CCCNC(=O)c2cc3cc(O)c(O)cc3[nH]2)CC1)c1cc2cc(O)c(O)cc2[nH]1", "cell line": "CEM", "value": ">88 µM"}
{"smiles": "Cc1cn([C@H]2C=C[C@@H](CO)O2)c(=O)[nH]c1=O", "strain": "RD 22-RTwt Recombinant", "cell line": "MT-4", "value": "0.3 µM"}
{"smiles": "O=C(NCCCCNC(=O)c1cc2cc3c(cc2[nH]1)OCO3)c1cc2cc3c(cc2[nH]1)OCO3", "cell line": "CEM", "value": ">200 µM"}
{"smiles": "CN(C)c1cc2c(=O)c(C(=O)O)cn(C)c2cc1N1CCN(c2ccccn2)CC1", "strain": "IIIB", "cell line": "MT-4", "value": ">13.03 µM"}
{"smiles": "COc1ccc(CCNC(=O)c2cc3cc4c(cc3[nH]2)OCO4)cc1OC", "cell line": "CEM", "value": ">200 µM"}
{"smiles": "COc1cccc(N2CCN(c3cc4c(cc3N)c(=O)c(C(=O)O)cn4C3CC3)CC2)c1", "strain": "IIIB", "cell line": "MT-4", "value": ">4.21 µM"}
{"smiles": "O=C(NCCCNC(=O)c1cc2cc3c(cc2[nH]1)OCO3)c1cc2cc3c(cc2[nH]1)OCO3", "cell line": "CEM", "value": ">200 µM"}
{"smiles": "COc1c(Cl)cc(C(=CCN[C@H]2CC[C@@]3(C)[C@@H](CC[C@@H]4[C@@H]3CC[C@]3(C)[C@@H]([C@H](C)CCCC(C)C)CC[C@@H]43)C2)c2cc(Cl)c(OC)c(C(=O)O)c2)cc1C(=O)O", "strain": "IIIB", "cell line": "MT-4", "value": ">125 µM"}

For reference, 5 entries again:

smiles,strain,changes,cell line,value
CN(C)c1cc2c(=O)c(C(=O)O)cn(C)c2cc1N1CCN(c2ccccn2)CC1,IIIB,,MT-4,>13.03 µM
Cc1cccc(S(=O)(=O)c2c(C(N)=O)[nH]c3ccc(Cl)cc23)c1,Efavirenz-resistant (RT K103R V179D P225H),RT-K103R V179D P225H,C8166,<0.26 µM
Cc1cn([C@H]2C[C@H](O)[C@@H](CO)S2)c(=O)[nH]c1=O,IIIB,,MT-4,>1 µM
O=CC(OC(=O)c1cc(O)c(O)c(O)c1Oc1cc2c(c(O)c1O)-c1c(cc(O)c(O)c1O)C(=O)OC1C(COC2=O)OC(OC(=O)c2cc(O)c(O)c(O)c2)C(OC(=O)c2cc(O)c(O)c(O)c2)C1OC(=O)c1cc(O)c(O)c(O)c1)C(OC(=O)c1cc(O)c(O)c(O)c1)C1OC(=O)c2cc(c(O)c(O)c2O)-c2c(cc(O)c(O)c2O)C(=O)OCC1O,IIIB,,MT-4,>50 µg/mL
Cc1cn([C@H]2C=C[C@@H](CO)O2)c(=O)[nH]c1=O,RD 22-RTwt Recombinant,,MT-4,0.3 µM

Rows are shuffled and stem from different studies. An empty or dashed field is not shown.